We go through three sequences from US7976843B2, “Method for screening peptides for use in immunotherapy” (Institut National de la Santa et de la Recherche Medicale …, priority 2000, dated 2011).

Assay [1] relates to RMAS-HHD targets loaded with peptide. Nature of the assay: Immunogenicity: CTL generation in HHD transgenic mice, 51Cr lysis of peptide-loaded targets. The class given is in vivo. Conditions: 100 μg peptide s.c., responder: specific cytotoxicity >15% above unloaded targets.
Assay [2] has as its target HLA A2.1 molecule (Homo sapiens, UniProt P04439, D140Y/D185E/D98H/E176V/E277Q/G131W/G231S/I119V/I121R/I166T/I218V/L300P/L318F/N151K/N90K/P208A/P217A/Q86G/Q94H/R138H/R169H/T345S). Conditions: native peptides; relative affinity vs reference peptide HIVpol 589; lower RA = stronger binding.

Turning to AAGIGILTV [Mart-1 27], the Responders/total mice in assay [1] was 4/5. On to ALIHHNTHL [HER-2/neu 466], for which the RA in assay [2] is reported as 4.8.

As to KIFGSLAFL [HER-2/neu 369], the Responders/total mice in assay [1] is recorded as 12/13.
